A mixed list of measured activities; the numbers were collected in NIAID ChemDB.

All rows: whole-cell or culture tests; agent: HIV-1; read by: cytopathic effect / XTT; endpoint: EC50

Neighbouring rows are from separate reports.

structure	mutations	cells	strain or isolate	setting	value
Cc1cc(S(=O)(=O)Nc2nc(N)nc(N3CCOCC3)n2)c(SCC(=O)O)cc1Cl	-	CEM	RF	-	>200 µM
CCc1c(Sc2ccccn2)n(COCc2ccccc2)c(=O)[nH]c1=O	-	PBMC	IIIB	-	0.046 µM
Cc1cc(S(=O)(=O)Nc2nc(Nc3ccc(Cl)cc3)nn2C)c(S)cc1Cl	-	CEM	RF	-	>67.6 µM
Nc1ccn([C@H]2CC[C@@H](CO)O2)c(=O)n1	-	CEM + CEM-SS	IIIB	-	0.028 µM
O=C(NCc1ccccc1)[C@H](OCc1ccccc1)[C@H](O)[C@@H](O)[C@@H](OCc1ccccc1)C(=O)N[C@H]1c2ccccc2C[C@H]1O	-	MT-4	-	-	3 µM
Cc1cc(S(=O)(=O)Nc2nnc3ccccn23)c(S)cc1Cl	-	CEM	RF	-	97.9 µM
O=[N+]([O-])c1ccccc1S(=O)(=O)c1ccccc1	-	PBMC	IIIB	-	0.24 µM
Cc1cn([C@H]2C[C@H](N=[N+]=[N-])[C@@H](COC(=O)[C@@H]3OC(C)(C)O[C@@]34CC[C@H]3[C@@H]5CCC6=CC(=O)C=C[C@]6(C)[C@H]5[C@@H](O)C[C@@]34C)O2)c(=O)[nH]c1=O	-	CEM + CEM-SS	-	-	0.065 µM
CCc1c(C(=O)c2cc(C)cc(C)c2)n(CC2CC=CC2)c(=O)[nH]c1=O	-	PBMC	CLADE E	clinical isolate	0.0008 µM
O=C(N[C@H]1c2ccccc2C[C@H]1O)[C@@H](C[C@@H](O)[C@@H](OCc1ccccc1)C(=O)N[C@H]1c2ccccc2C[C@H]1O)OCc1ccccc1	-	MT-4	-	-	1.4 µM
CCCc1cc(=O)oc2c3c(c4c(c12)OC(C)(C)C=C4)O[C@H](C(C)C)[C@H](C)[C@@H]3O	-	CEM + CEM-SS	RF	-	>100 µM
CCc1c([Se]c2cccc(C)c2)n(COCCO)c(=O)[nH]c1=O	-	CEM + CEM-SS	RF	-	0.12 µM
O=S(=O)(Nc1nnc2c3ccccc3cnn12)c1ccc(Cl)cc1S	-	CEM	RF	-	70 µM
O=S1(c2ccccc2)=NC(=S)Nc2ccc(Cl)cc21	-	CEM + CEM-SS	IIIB	-	0.16 µM
CC(C)(C)NC(=O)[C@@H]1C[C@@H]2CCCC[C@@H]2CN1C[C@@H](O)[C@H](Cc1ccccc1)NC(=O)[C@H](CC(N)=O)NC(=O)c1ccc2ccccc2n1	PR-I84V	MT-4	IIIB	-	0.013 µM
O=C(NCCc1c[nH]c2ccccc12)C1=Cc2ccncc2CC1	-	CEM + CEM-SS	RF	-	>51 µM
Cc1ccnc2c1NC(=O)c1cccnc1N2C1CC1	RT-D67N K70R Y181C T215Y K219Q	CEM + CEM-SS	4XAZT/Y181C (RT D67N K70R Y181C T215Y K219Q)	-	0.8 µM
Cc1ccc2nnc(NS(=O)(=O)c3cc(C)c(Cl)cc3S)n2n1	-	CEM	RF	-	>200 µM
COc1ccccc1CNC(=O)[C@H](OCc1ccccc1)[C@H](O)[C@@H](O)[C@@H](OCc1ccccc1)C(=O)N[C@H]1c2ccccc2C[C@H]1O	-	MT-4	-	-	4 µM
NC(=O)C(c1ccccc1)(c1ccccc1)[C@H]1CCCN(CCc2ccc3c(c2)CCC3)C1	-	MT-2	NL4-3	-	0.12 µM
O=C(N[C@H]1c2ccccc2C[C@H]1O)[C@H](OCc1ccccc1)[C@H](O)[C@@H](O)[C@@H](OCc1ccccc1)C(=O)N[C@H]1c2ccccc2C[C@H]1O	-	MT-4	-	-	0.1 µM
CCOCn1c([Se]c2cccc(C)c2)c(CC)c(=O)[nH]c1=O	-	CEM + CEM-SS	RF	-	0.027 µM
Cc1cn([C@H]2C[C@H](N=[N+]=[N-])[C@@H](CO)O2)c(=O)[nH]c1=O	RT-K101E	CEM + CEM-SS	NL4-3	-	0.004 µM
CNC(=O)[C@@H](NC(=O)[C@H](OCc1ccccc1)[C@H](O)[C@@H](O)[C@@H](OCc1ccccc1)C(=O)N[C@H](C(=O)NC)C(C)C)C(C)C	-	MT-4	-	-	1.1 µM
CCc1c([Se]c2cc(C)cc(C)c2)n(COCCO)c(=O)[nH]c1=O	-	CEM + CEM-SS	RF	-	0.022 µM
Cc1cccc(C[C@@H](O)[C@H](Cc2ccccc2)NC(=O)[C@H](CC(N)=O)NC(=O)c2ccc3ccccc3n2)c1C(=O)NC(C)(C)C	-	CEM + CEM-SS	RF	-	0.92 µM
CCCCCC=C(c1cc(Cl)c(OC)c(C(=O)N(C)C)c1)c1cc(Cl)c(OC)c(C(=O)N(C)C)c1	-	CEM + CEM-SS	RF	-	>21 µM
NC(=O)C(c1ccccc1)(c1ccccc1)[C@H]1CCCN(CCc2ccc3c(c2)CCO3)C1	-	MT-2	NL4-3	-	1.2 µM
CC1=C(C(=O)Nc2ccc(Cl)c(C(=O)OC(C)C)c2)SCCO1	-	PBMC	IIIB	-	0.1 µM
Cc1cc(C)cc([Se]c2c(C(C)C)c(=O)[nH]c(=O)n2COCCO)c1	-	CEM + CEM-SS	RF	-	0.019 µM
NC(=O)C(c1ccccc1)(c1ccccc1)[C@H]1CCCN(CCOCc2ccccc2)C1	-	MT-2	NL4-3	-	0.45 µM
CCCCCC=C(c1cc(Cl)c(OC)c(C(=O)NC)c1)c1cc(Cl)c(OC)c(C(=O)NC)c1	-	CEM + CEM-SS	RF	-	>21 µM
Cc1cn([C@H]2C[C@H](N=[N+]=[N-])[C@@H](CO)O2)c(=O)[nH]c1=O	Pyridinone-resistant	MT-2	A17	-	0.005 µM
CCCCCC=C(c1cc(Cl)c(O)c(C(=O)NO)c1)c1cc(Cl)c(O)c(C(=O)NO)c1	-	CEM + CEM-SS	RF	-	>37 µM
COc1cc(Nc2nc(NS(=O)(=O)c3cc(C)c(Cl)cc3S)n[nH]2)cc(OC)c1OC	-	CEM	RF	-	113.8 µM
O=S1(c2ccccc2)=NC(=S)Nc2ccccc21	-	CEMx174 + CEM	RF	-	3.28 µM
NNC(=O)c1ccccc1SSc1ccccc1C(=O)NN	-	CEM	RF	-	1.51 µM
CC(C)(C)NC(=O)[C@@H]1CN(Cc2cccnc2)CCN1C[C@@H](O)C[C@@H](Cc1ccccc1)C(=O)N[C@H]1c2ccccc2C[C@H]1O	-	CEM	RF	-	0.01 µM
CCCCCC=C(c1cc(Br)c([O-])c(C(=O)O)c1)c1cc(Br)c([O-])c(C(=O)O)c1.[NH4+].[NH4+]	-	CEM + CEM-SS	RF	-	>150 µM
CC(C)(C)NC(=O)[C@@H]1C[C@@H]2CCCC[C@@H]2CN1C[C@@H](O)[C@H](Cc1ccccc1)NC(=O)[C@H](CC(N)=O)NC(=O)c1ccc2ccccc2n1	-	CEM	RF	-	0.004 µM
CC(C)=CCN1Cc2cccc3[nH]c(=S)n(c23)C[C@@H]1C	-	U-937	IIIB	-	0.17 µM
Cc1cc(S(=O)(=O)Nc2n[nH]c(-c3ccccn3)n2)c(S)cc1Cl	-	CEM	RF	-	>4.3 µM

For reference, 2 entries again:

| structure | mutations | cells | strain or isolate | setting | value |
|---|---|---|---|---|---|
| O=S1(c2ccccc2)=NC(=S)Nc2ccc(Cl)cc21 | - | CEM + CEM-SS | IIIB | - | 0.16 µM |
| O=S(=O)(Nc1nnc2c3ccccc3cnn12)c1ccc(Cl)cc1S | - | CEM | RF | - | 70 µM |

An empty or dashed field is not shown. ECn is the concentration giving n% inhibition of infection, replication or growth.